The text below walks through data of publication PMC7830303 (Molecules, 2021).

Data set [1] in a line: Channel current measurement, droplet contact method. The following applies: DOPE/DOPG (3:1 mol/mol), peptide at 100 nM, 100 mV, 200 mM KCl, 23 °C.
Experiment in data set [2]: as above
The following applies: peptide at 100 nM, 100 mV, 23 °C.

Structures are written as SMILES. Bridge positions count the residues as written; N and C are the ends. Square brackets hold non-standard residues; d marks the D form. Peptide text beside a SMILES is read from it. R8 = C=CCCCCCC[C@@](C)(N)C(=O)O; S5 = C=CCCC[C@](C)(N)C(=O)O; Aib = CC(C)(N)C(=O)O

For `CC[C@H](C)[C@H](NC(=O)CN)C(=O)N[C@@H](CCCCN)C(=O)N[C@@H](CCCCN)C(=O)N[C@@H](Cc1ccccc1)C(=O)N[C@@H](CC(C)C)C(=O)N[C@@H](CCCCN)C(=O)N[C@@H](CO)C(=O)NC(C)(C)C(=O)N[C@@H](CCCCN)C(=O)N[C@@H](CCCCN)C(=O)N[C@@H](Cc1ccccc1)C(=O)N[C@H](C(=O)N[C@@H](CCCCN)C(=O)NC(C)(C)C(=O)N[C@@H](Cc1ccccc1)C(=O)N[C@@H](CCCCN)C(N)=O)C(C)C` [Peptide 1, reference compound] (H-GIKKFLKS[Aib]KKFVK[Aib]FK-NH2), the “Electrophysiological signal type on DOPE/DOPG bilayer” value in data set [1] was “membrane disruption activity”.

`CC[C@H](C)[C@@H]1NC(=O)[C@@](C)(N)CCCC=CCCC[C@@](C)(C(=O)N[C@@H](CC(C)C)C(=O)N[C@@H](CCCCN)C(=O)N[C@@H](CO)C(=O)N[C@@H](C)C(=O)N[C@@H](CCCCN)C(=O)N[C@@H](CCCCN)C(=O)N[C@@H](Cc2ccccc2)C(=O)N[C@H](C(=O)N[C@@H](CCCCN)C(=O)N[C@@H](C)C(=O)N[C@@H](Cc2ccccc2)C(=O)N[C@@H](CCCCN)C(N)=O)C(C)C)NC(=O)[C@H](CCCCN)NC(=O)[C@H](CCCCN)NC1=O` [Peptide 2] (H-[S5]IKK[S5]LKSAKKFVKAFK-NH2; staple 1-5): the “Electrophysiological signal type on DOPE/DOPG bilayer” value in data set [1] was “successive increase of current signals”. For the same molecule, the “Electrophysiological signal type on DOPC bilayer” value in data set [2] is “spike signals”. Turning to `CC[C@H](C)[C@H](NC(=O)CN)C(=O)N[C@@H](CCCCN)C(=O)N[C@@H](CCCCN)C(=O)N[C@@H](Cc1ccccc1)C(=O)N[C@@H](CC(C)C)C(=O)N[C@@H](CCCCN)C(=O)N[C@]1(C)CCCCCCC=CCCC[C@@](C)(C(=O)N[C@@H](Cc2ccccc2)C(=O)N[C@@H](CCCCN)C(N)=O)NC(=O)[C@H](CCCCN)NC(=O)[C@H](C(C)C)NC(=O)[C@H](Cc2ccccc2)NC(=O)[C@H](CCCCN)NC(=O)[C@H](CCCCN)NC(=O)[C@H](C)NC1=O` [Peptide 8] (H-GIKKFLK[R8]AKKFVK[S5]FK-NH2; staple 8-15), the “Electrophysiological signal type on DOPE/DOPG bilayer” value in data set [1] is “successive increase of current signals”. Moreover, the “Electrophysiological signal type on DOPC bilayer” value in data set [2] is reported as “subsequent increase in current signals”.
